Source: paper PMC9416111, “Synthesis and Biological Activity of Unsymmetrical Monoterpenylhetaryl Disulfides” (Molecules, 2022)
Values joined by “and” are separate entries in the source; they are usually repeats but may differ in a detail not shown here. Equal values may be shown once.

tested on: influenza virus A/Puerto Rico/8/34 (H1N1); experiment: Antiviral cell protection assay in MDCK cells; type: cell-based; settings: ratio of CC50 to IC50 (MDCK)

Row | Structure (SMILES) | SI
1 | CC(C)[C@@H]1CC[C@@H](C)C[C@@H]1SSc1nc2ccccc2s1 [Compound 1a, 2-(((1S,2S,5R)-2-isopropyl-5-methylcyclohexyl)disulfanyl)benzo[d]thiazole] | 8
2 | Cc1cc(C)nc(SS[C@H]2C[C@H](C)CC[C@H]2C(C)C)n1 [Compound 1b, 2-(((1S,2S,5R)-2-isopropyl-5-methylcyclohexyl)disulfanyl)-4,6-dimethylpyrimidine] | 2
3 | COC(=O)c1cccnc1SS[C@H]1C[C@H](C)CC[C@H]1C(C)C [Compound 1c, Methyl 2-(((1S,2S,5R)-2-isopropyl-5-methylcyclohexyl)disulfanyl)pyridine-3-carboxylate] | 3
4 | CC(C)[C@@H]1CC[C@@H](C)C[C@@H]1SSc1ncccc1C(=O)O [Compound 1d, 2-(((1S,2S,5R)-2-isopropyl-5-methylcyclohexyl)disulfanyl)nicotinic acid] | 1
5 | CC1(C)[C@H]2CC[C@@H](CSSc3nc4ccccc4s3)[C@@H]1C2 [Compound 2a, 2-((((1S,2R,5S)-6,6-dimethylbicyclo [3.1.1]heptan-2-yl)methyl)disulfaneyl)benzo[d]thiazole] | 8
6 | Cc1cc(C)nc(SSC[C@@H]2CC[C@H]3C[C@@H]2C3(C)C)n1 [Compound 2b, 2-((((1S,2R,5S)-6,6-dimethylbicyclo[3.1.1]heptan-2-yl)methyl)disulfanyl)-4,6-dimethylpyrimidine] | 3
7 | COC(=O)c1cccnc1SSC[C@@H]1CC[C@H]2C[C@@H]1C2(C)C [Compound 2c, Methyl 2-((((1S,2R,5S)-6,6-dimethylbicyclo[3.1.1]heptan-2-yl)methyl)disulfaneyl)pyridine-3-carboxylate] | 6
8 | CC1(C)[C@H]2CC[C@@H](CSSc3ncccc3C(=O)O)[C@@H]1C2 [Compound 2d, 2-((((1S,2R,5S)-6,6-dimethylbicyclo[3.1.1]heptan-2-yl)methyl)disulfanyl)nicotinic acid] | > 10 and 12
9 | CC1(C)[C@H]2C[C@H](SSc3nc4ccccc4s3)[C@@H](CO)[C@@H]1C2 [Compound 3a, ((1S,2R,3S,5R)-3-(benzo[d]thiazol-2-yldisulfanyl)-6,6-dimethylbicyclo[3.1.1]heptan-2-yl)methanol] | 4
10 | Cc1cc(C)nc(SS[C@H]2C[C@H]3C[C@@H]([C@@H]2CO)C3(C)C)n1 [Compound 3b, ((1S,2R,3S,5R)-3-((4,6-dimethylpyrimidin-2-yl)disulfanyl)-6,6-dimethylbicyclo[3.1.1]heptan-2-yl)methanol] | 5
11 | COC(=O)c1cccnc1SS[C@H]1C[C@H]2C[C@@H]([C@@H]1CO)C2(C)C [Compound 3c, Methyl 2-(((1S,2R,3S,5R)-2-(hydroxymethyl)-6,6-dimethylbicyclo[3.1.1]hept-3-yl)disulfanyl)pyridine-3-carboxylate] | 1
12 | CC1(C)[C@H]2C[C@H](SSc3ncccc3C(=O)O)[C@@H](CO)[C@@H]1C2 [Compound 3d, 2-(((1S,2R,3S,5R)-2-(hydroxymethyl)-6,6-dimethylbicyclo[3.1.1]heptan-3-yl)disulfanyl)nicotinic acid] | 2
13 | CC1(C)[C@H]2C[C@H](O)[C@@H](CSSc3nc4ccccc4s3)[C@@H]1C2 [Compound 4a, (1S,2S,3S,5R)-2-((benzo[d]thiazol-2-yldisulfanyl)methyl)-6,6-dimethylbicyclo[3.1.1]heptan-3-ol] | 2
14 | Cc1cc(C)nc(SSC[C@@H]2[C@@H](O)C[C@H]3C[C@@H]2C3(C)C)n1 [Compound 4b, (1S,2S,3S,5R)-2-(((4,6-dimethylpyrimidin-2-yl)disulfanyl)methyl)-6,6-dimethylbicyclo[3.1.1]heptan-3-ol] | 3
15 | COC(=O)c1cccnc1SSC[C@@H]1[C@@H](O)C[C@H]2C[C@@H]1C2(C)C [Compound 4c, Methyl 2-((((1S,2S,3S,5R)-3-hydroxy-6,6-dimethylbicyclo[3.1.1]heptan-2-yl)methyl)disulfanyl)pyridine-3-carboxylate] | 1
16 | CC1(C)[C@H]2C[C@H](O)[C@@H](CSSc3ncccc3C(=O)O)[C@@H]1C2 [Compound 4d, 2-((((1S,2S,3S,5R)-3-hydroxy-6,6-dimethylbicyclo[3.1.1]heptan-2-yl)methyl)disulfanyl)nicotinic acid] | 2
17 | CC(N)C12CC3CC(CC(C3)C1)C2 (centres unmarked) [Rimantadine, reference compound] | 6
